# Earlier results in patent publication US8115046B2, “Micro encapsulation composition for hydrocarbons and detoxification of highly hazardous chemicals and substances” (dated 2012).
# Tested on: anthrax spores
# Details: cited from earlier work
smiles,measurement,value
OO,concentration required for denaturation (spore kill) of anthrax spores,10-20%
